# In patent US20170049884A1, “USE OF ANTI-CCR5 ANTIBODIES IN GRAFT VERSUS HOST DISEASE” (CytoDyn Inc., priority 2014, published 2017):
# Chains of the proteins cited; added tags and fusions are not shown.
# UniProt P51681, whole entry: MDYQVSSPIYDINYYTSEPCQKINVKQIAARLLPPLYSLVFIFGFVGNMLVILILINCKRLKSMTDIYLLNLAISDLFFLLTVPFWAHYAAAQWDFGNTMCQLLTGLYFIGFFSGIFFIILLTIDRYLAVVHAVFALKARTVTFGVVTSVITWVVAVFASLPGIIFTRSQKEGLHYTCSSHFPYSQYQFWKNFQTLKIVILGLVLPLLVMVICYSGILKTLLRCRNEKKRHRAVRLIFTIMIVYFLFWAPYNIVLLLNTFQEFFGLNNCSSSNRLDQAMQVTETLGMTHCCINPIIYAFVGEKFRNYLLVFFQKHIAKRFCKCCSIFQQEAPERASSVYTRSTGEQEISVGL
# Molecular target: CCR5 (Homo sapiens, UniProt P51681)
# Assay: Competition binding: inhibition of 3H-UK-427,857 binding to CEM.NKR-CCR5 cells
# Set-up: host or cells: CEM.NKR-CCR5 (transduced human T cell leukemia line)
# Conditions: higher than the antiviral IC50 of PRO 140
molecule,measurement,value
"PRO 140: humanized IgG4,kappa anti-CCR5 mAb; humanized version of the murine mAb PA14 (antibody, chains of the INN, looked up, V domains shown) VH: EVQLVESGGGLVKPGGSLRLSCAASGYTFSNYWIGWVRQAPGKGLEWIGDIYPGGNYIRNNEKFKDKTTLSADTSKNTAYLQMNSLKTEDTAVYYCGSSFGSNYVFAWFTYWGQGTLVTVSS VL: DIVMTQSPLSLPVTPGEPASISCRSSQRLLSSYGHTYLHWYLQKPGQSPQLLIYEVSNRFSGVPDRFSGSGSGTDFTLKISRVEAEDVGVYYCSQSTHVPLTFGQGTKVEIK",EC50 relative to antiviral IC50,5-10 fold
